Assay results reported in patent US20240270826A1 (NATIONAL RESEARCH COUNCIL OF CANADA, published 2024).

Tests used:
[1] = biological target: T1, RBD_beta (aa319-541) (B.1.351) (SARS-CoV-2 (Beta, B.1.351), UniProt P0DTC2 319-541); assay: SPR, RBD over captured VHH-Fc
[2] = biological target: T1, RBD_beta (aa319-541) (B.1.351); assay: SPR, RBD over captured VHH-Fc (per Table 11 footnote)

B1: NRCoV2-MRed05 VHH-Fc (Fc fusion)
chain: EVQLVESGGGLVQPGGSLRLSCAASGFTLDYYAIGWFRQAPGKEREGVSCISSSDGSTLYADSVKGRFTISRDNAKNTVYLQMNSLKPEDTAVYYCATGPQAYYSGSYYFQCPQAGMDYWGKGTQVTVSS
[1]
  Kd: 888 pM
  koff: 0.000544 s⁻¹
  kon: 612000 M⁻¹ s⁻¹
[2]
  Kd: 890 pM
